In paper PMC10653821, “Self-assembling Gn head ferritin nanoparticle vaccine provides full protection from lethal challenge of Dabie bandavirus in aged ferrets” (2023):

Molecular target: DBV Gn head-ferritin nanoparticle
Experiment: SEC

DBV Gn head-ferritin nanoparticle
stoichiometry N: 24
